Here are results for two molecules from PMC9104152, “Phosphoproteomics Unravel HBV Triggered Rewiring of Host Phosphosignaling Events” (International Journal of Molecular Sciences, 2022).

The data set has as its system HepG2-NTCP cells. Put plainly: TMT-based phosphoproteome profiling of HBV-infected vs mock HepG2-NTCP (HBV/mock ratio). The arrangement: species or system human. The note with it: phosphosites of host proteins deregulated at 7dpi; sheet Up-regulated; HBV-infected vs mock HepG2-NTCP.

B1: P45974 1xPhospho [T623(100)] (protein, UniProt P45974 2-858, looked up)
Ubiquitin carboxyl-terminal …: AELSEEALLSVLPTIRVPKAGDRVHKDECAFSFDTPESEGGLYICMNTFLGFGKQYVERHFNKTGQRVYLHLRRTRRPKEEDPATGTGDPPRKKPTRLAIGVEGGFDLSEEKFELDEDVKIVILPDYLEIARDGLGGLPDIVRDRVTSAVEALLSADSASRKQEVQAWDGEVRQVSKHAFSLKQLDNPARIPPCGWKCSKCDMRENLWLNLTDGSILCGRRYFDGSGGNNHAVEHYRETGYPLAVKLGTITPDGADVYSYDEDDMVLDPSLAEHLSHFGIDMLKMQKTDKTMTELEIDMNQRIGEWELIQESGVPLKPLFGPGYTGIRNLGNSCYLNSVVQVLFSIPDFQRKYVDKLEKIFQNAPTDPTQDFSTQVAKLGHGLLSGEYSKPVPESGDGERVPEQKEVQDGIAPRMFKALIGKGHPEFSTNRQQDAQEFFLHLINMVERNCRSSENPNEVFRFLVEEKIKCLATEKVKYTQRVDYIMQLPVPMDAALNKEELLEYEEKKRQAEEEKMALPELVRAQVPFSSCLEAYGAPEQVDDFWSTALQAKSVAVKTTRFASFPDYLVIQIKKFTFGLDWVPKKLDVSIEMPEELDISQLRGTGLQPGEEELPDIAPPLVTPDEPKGSLGFYGNEDEDSFCSPHFSSPTSPMLDESVIIQLVEMGFPMDACRKAVYYTGNSGAEAAMNWVMSHMDDPDFANPLILPGSSGPGSTSAAADPPPEDCVTTIVSMGFSRDQALKALRATNNSLERAVDWIFSHIDDLDAEAAMDISEGRSAADSISESVPVGPKVRDGPGKYQLFAFISHMGTSTMCGHYVCHIKKEGRWVIYNDQKVCASEKPPKDLGYIYFYQRVAS
modifications: phosphorylated T623
B1: the HBV/mock is on record as 1.3001.

B2: A0JNW5 1xPhospho [S/T] (protein, UniProt A0JNW5 1-1464, looked up)
Bridge-like lipid transfer …: MAGIIKKQILKHLSRFTKNLSPDKINLSTLKGEGELKNLELDEEVLQNMLDLPTWLAINKVFCNKASIRIPWTKLKTHPICLSLDKVIMEMSTCEEPRSPNGPSPIATASGQSEYGFAEKVVEGISVSVNSIVIRIGAKAFNASFELSQLRIYSVNAHWEHGDLRFTRIQDPQRGEVLTFKEINWQMIRIEADATQSSHLEIMCAPVRLITNQSKIRVTLKRRLKDCNVIATKLVLILDDLLWVLTDSQLKAMVQYAKSLSEAIEKSTEQRKSMAPEPTQSSTVVASAQQVKTTQTSNAPDVNDAIVKLFNDFDVKETSHHLVISHLDLHICDDIHAKEKESNRRITGGAMQLSFTQLTIDYYPYHKAGDSCNHWMYFSDATKTKNGWANELLHEFECNVEMLKQAVKDHNVGSPPKSPTHASPQHTQTEKDYPLKGTCRTPSVLSQQSKAKLMSSSVVVRLADFNIYQVSTAEQCRSSPKSMICCNKKSLYLPQEMSAVYIEFTEYYYPDGKDFPIPSPNLYSQLNALQFTVDERSILWLNQFLLDLKQSLNQFMAVYKLNDNSKSDEHVDVRVDGLMLKFVIPSEVKSECHQDQPRAISIQSSEMIATNTRHCPNCRHSDLEALFQDFKDCDFFSKTYTSFPKSCDNFNLLHPIFQRHAHEQDTKMHEIYKGNITPQLNKNTLKTSAATDVWAVYFSQFWIDYEGMKSGKGRPISFVDSFPLSIWICQPTRYAESQKEPQTCNQVSLNTSQSESSDLAGRLKRKKLLKEYYSTESEPLTNGGQKPSSSDTFFRFSPSSSEADIHLLVHVHKHVSMQINHYQYLLLLFLHESLILLSENLRKDVEAVTGSPASQTSICIGILLRSAELALLLHPVDQANTLKSPVSESVSPVVPDYLPTENGDFLSSKRKQISRDINRIRSVTVNHMSDNRSMSVDLSHIPLKDPLLFKSASDTNLQKGISFMDYLSDKHLGKISEDESSGLVYKSGSGEIGSETSDKKDSFYTDSSSILNYREDSNILSFDSDGNQNILSSTLTSKGNETIESIFKAEDLLPEAASLSENLDISKEETPPVRTLKSQSSLSGKPKERCPPNLAPLCVSYKNMKRSSSQMSLDTISLDSMILEEQLLESDGSDSHMFLEKGNKKNSTTNYRGTAESVNAGANLQNYGETSPDAISTNSEGAQENHDDLMSVVVFKITGVNGEIDIRGEDTEICLQVNQVTPDQLGNISLRHYLCNRPVGSDQKAVIHSKSSPEISLRFESGPGAVIHSLLAEKNGFLQCHIENFSTEFLTSSLMNIQHFLEDETVATVMPMKIQVSNTKINLKDDSPRSSTVSLEPAPVTVHIDHLVVERSDDGSFHIRDSHMLNTGNDLKENVKSDSVLLTSGKYDLKKQRSVTQATQTSPGVPWPSQSANFPEFSFDFTREQLMEENESLKQELAKAKMALAEAHLEKDALLHHIKKMTVE
modifications: phosphorylated
For the molecule B2, the HBV/mock stood at 1.353.
